# Measured data: PubChem BioAssay AID1259414 (Drosophila RNAi Screening Center, 2018)
# Assay: 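Fly genes that alter Wolbachia amount inside host cells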 (primary screen)
# Cells: Drosophila JW18 cells infected with Wolbachia
# Reagent: long dsRNA against Drosophila genes, 0.25 µg dsRNA per well of a 384-well plate
# Time to read-out: 5 days
# Conditions: cells persistently infected with Wolbachia before knock-down; no added drug
# Read-out: 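Imaged fluorescence in situ signal for Wolbachia 23S rRNA per DAPI-counted host cell, given as a robust z-score within each plate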
# Reading the numbers: Wolbachia per cell robust z: higher = more Wolbachia per host cell than the plate typical
# Hit rule: 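Hit when robust z is 1.5 or more, or -1.5 or less, in at least two of three replicates; excludes dsRNAs with several or no targets, genes not expressed in JW18 and well A1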
# In all, the deposit lists about 24,000 reagents; below is a random part of those with a known target gene and a result. In the full data, about 1,210 (5%) were called active. 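Inactive calls also include excluded dsRNAs with several or no targets, genes unexpressed in JW18, and well A1, regardless of score.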 No sequences are given here.
predicted target,amplicon,"Wolbachia per cell robust z, rep 1","Wolbachia per cell robust z, rep 2","Wolbachia per cell robust z, rep 3",call
CG2861,DRSC18229,-3.21,0.566,1.39,inactive
spz5 (spatzle 5),DRSC08645,0.289,0.171,-5.34,inactive
CG44422,DRSC18885,-0.00425,0.166,0.905,inactive
CG44422,DRSC19380,1.49,0.414,-0.497,inactive
CG44422,DRSC23284,0.177,0.0299,0.193,inactive
CG44422,DRSC38598,0.871,-0.138,-0.325,inactive
CG13288,DRSC09962,0.285,-2.69,-0.465,inactive
Jon99Fii (Jonah 99Fii),DRSC15430,-0.062,-0.457,-0.648,inactive
CG10576,DRSC09745,0.846,0.465,-3.99,inactive
CG15909,DRSC04977,-0.77,1.02,0.106,inactive
CG12253,DRSC02153,0.513,0.452,-0.958,inactive
CG12253,DRSC27266,-0.543,0.313,0.0682,inactive
Tsp42Ej (Tetraspanin 42Ej),DRSC06113,0.362,-3.31,0.735,inactive
Tsp42Ej (Tetraspanin 42Ej),DRSC28269,-0.512,-1.34,-0.194,inactive
CG7384,DRSC03053,0.387,0.513,-0.285,inactive
Amun,DRSC19847,-4.98,-0.337,-0.00294,inactive
Amun,DRSC28058,-0.352,-0.29,-1.9,inactive
Fer2LCH (Ferritin 2 light chain homologue),DRSC16672,-0.122,-3.56,0.457,inactive
Fer2LCH (Ferritin 2 light chain homologue),DRSC29169,0.676,-1.3,-0.221,inactive
CG7564,DRSC10880,0.326,0.0324,-0.194,inactive
CG7564,DRSC28225,0.665,-0.0721,-0.571,inactive
CR30374 (pseudo),DRSC05080,-3.35,-9.31,-2.77,inactive
CG9254,DRSC01969,-1.16,-0.999,-0.557,inactive
Gs2 (Glutamine synthetase 2),DRSC20250,0.0495,0.138,0.393,inactive
Gs2 (Glutamine synthetase 2),DRSC26818,0.847,0.339,-1.35,inactive
CG3323,DRSC18303,0.717,-1.62,-1.18,inactive
GNBP1 (Gram-negative bacteria binding protein 1),DRSC11169,-0.488,0.239,-0.356,inactive
GNBP1 (Gram-negative bacteria binding protein 1),DRSC21836,-1.57,-2.45,-0.255,active
CG3706,DRSC18649,0.526,-0.0848,0.368,inactive
Toll-7,DRSC07563,0.526,0.172,1.21,inactive
Toll-7,DRSC29640,0.7,0.313,1.17,inactive
AttA (Attacin-A),DRSC05926,0.768,0.169,0.326,inactive
AttA (Attacin-A),DRSC27311,0.417,0.42,0.913,inactive
CG7370,DRSC41311,0.512,1.84,0.66,inactive
CG13544,DRSC04186,0.24,0.138,-0.00155,inactive
CG13544,DRSC30038,-1.22,-0.609,0.326,inactive
Mhc (Myosin heavy chain),DRSC03367,0.491,-0.0586,-0.488,inactive
Mhc (Myosin heavy chain),DRSC25959,-0.586,0.165,0.306,inactive
Reph (Regulator of eph expression),DRSC00634,0.336,-0.0199,-1.09,inactive
Reph (Regulator of eph expression),DRSC22031,0.15,-0.621,0.493,inactive
Reph (Regulator of eph expression),DRSC29417,-0.412,-6.43,1.37,inactive
CG7376,DRSC10829,0.28,0.0768,-0.262,inactive
mRRF2 (mitochondrial ribosome recycling factor 2),DRSC16143,-5.45,0.102,-5.27,active
meigo (medial glomeruli),DRSC15877,-1.5,-1.51,0.226,active
meigo (medial glomeruli),DRSC25836,1.07,0.731,2.37,inactive

Ordered by “Wolbachia per cell robust z, rep 2” (low to high): 6 of the entries above.
predicted target,amplicon,"Wolbachia per cell robust z, rep 1","Wolbachia per cell robust z, rep 2","Wolbachia per cell robust z, rep 3",call
GNBP1 (Gram-negative bacteria binding protein 1),DRSC21836,-1.57,-2.45,-0.255,active
CG3323,DRSC18303,0.717,-1.62,-1.18,inactive
CG3706,DRSC18649,0.526,-0.0848,0.368,inactive
Gs2 (Glutamine synthetase 2),DRSC20250,0.0495,0.138,0.393,inactive
GNBP1 (Gram-negative bacteria binding protein 1),DRSC11169,-0.488,0.239,-0.356,inactive
Gs2 (Glutamine synthetase 2),DRSC26818,0.847,0.339,-1.35,inactive

The listing continues:
predicted target,amplicon,"Wolbachia per cell robust z, rep 1","Wolbachia per cell robust z, rep 2","Wolbachia per cell robust z, rep 3",call
Or1a (Odorant receptor 1a),DRSC18689,0.074,0.653,0.35,inactive
Arfrp1 (ADP-ribosylation factor related protein 1),DRSC18417,0.774,-0.421,0.562,inactive
bif (bifocal),DRSC18901,0.184,0.896,0.339,inactive
bif (bifocal),DRSC20313,-0.0731,0.774,-0.358,inactive
bif (bifocal),DRSC28382,-1.17,1.47,1.29,inactive
CG4597,DRSC10432,1.6,0.597,-0.206,inactive
CG12341,DRSC06133,-0.86,-0.697,0.161,inactive
Hey (Hairy/E(spl)-related with YRPW motif),DRSC23030,-1.12,-0.377,-4.81,inactive
CG8319,DRSC16407,0.642,-2.27,0.908,inactive
CG8319,DRSC24607,1.09,0.934,-0.24,inactive
CG1724,DRSC20548,-5.35,-0.426,-0.326,inactive
CG1724,DRSC25668,0.344,0.0927,0.38,inactive
Cdc42 (Cell division cycle 42),DRSC20228,0.784,0.773,1.77,inactive
Cdc42 (Cell division cycle 42),DRSC25134,1.49,1.42,2.4,inactive
lace,DRSC03564,1.39,0.877,2.28,inactive
eIF3f2 (eukaryotic translation initiation factor 3 subunit f2),DRSC04903,-0.792,-0.598,0.0656,inactive
lqfR (liquid facets-Related),DRSC14703,0.289,-0.345,0.74,inactive
lqfR (liquid facets-Related),DRSC14704,0.0304,0.202,-0.345,inactive
lqfR (liquid facets-Related),DRSC25247,-0.45,0.896,-0.551,inactive
amos (absent MD neurons and olfactory sensilla),DRSC03484,-0.207,-0.0364,1.23,inactive
amos (absent MD neurons and olfactory sensilla),DRSC24784,0.551,-0.702,-0.0225,inactive
amos (absent MD neurons and olfactory sensilla),DRSC38945,1.4,0.48,0.456,inactive
sqa (spaghetti-squash activator),DRSC06693,-1.36,0.104,0.00877,inactive
sqa (spaghetti-squash activator),DRSC21635,-0.957,-1.04,-1.44,inactive
